Here are results for two compounds from article PMC8713996, “An anti-tuberculosis compound screen using a zebrafish infection model identifies an aspartyl-tRNA synthetase inhibitor” (Disease Models & Mechanisms, 2021).

This assay has as its system Mmar-R-TBA161-C (aspS R168G).

With `O=c1c2ccccc2oc2nc3n(c(=O)c12)CCCS3` [TBA161-A, 3,4-dihydro-chromeno[2′,3′:4,5]pyrimido[2,1-b][1,3]thiazine-6,7-dione], the “Cross-resistance of the TBA161-C resistant mutant of M. marinum” value was “cross-resistance”. On to `O=c1c2cc(Br)ccc2oc2nc3n(c(=O)c12)CCCS3` [TBA161-B, 9-bromo-3,4-dihydro-chromeno[2′,3′:4,5]pyrimido[2,1-b][1,3]thiazine-6,7-dione], for which the “Cross-resistance of the TBA161-C resistant mutant of M. marinum” value was “cross-resistance”.
